A mixed list of measured activities; the numbers were collected in NIAID ChemDB.

Common to all: growth or infection tests; organism: Mycobacterium tuberculosis

A number after MIC or MFC names an inhibition level or a share of isolates.

compound,tested at,cells,method,conditions,strain or isolate,changes,measure,result
CSc1ccc(-c2cc(CN3CCSCC3)c(C)n2-c2ccc(F)cc2)cc1,-,-,-,-,H37Rv,-,MIC90,13.81 µM
CC(=O)c1cc([N+](=O)[O-])c2ncccc2c1C(C)C,-,-,-,-,H37Rv,-,MIC,>6.25 µg/mL
CCCN(C(=O)COc1cc2c(O)c3c(O)c(C)c4c(c13)C(=O)[C@@](C)(O/C=C/[C@H](OC)[C@@H](C)[C@@H](OC(C)=O)[C@H](C)[C@H](O)[C@H](C)[C@@H](O)[C@@H](C)/C=C/C=C(/C)C(=O)N2)O4)N1CCCCC1,-,-,-,-,-,-,EC50,0.045 µg/mL
C=CCn1c(-c2ccc(N=N/C(C(=O)OCC)=C(/C)O)cc2)n[nH]c1=S,12.5 µg/mL,-,-,-,H37Rv,-,inhibition,0%
O=C(N/N=C/c1ccc2c(c1)OCO2)c1cccnc1,-,-,-,-,-,-,MIC,10 µg/mL
COc1ccc2c(N/N=C/c3c(OC)ccc4ccccc34)cc(C)nc2c1,12.5 µg/mL,VERO,-,-,H37Rv,-,inhibition,100%
CN(C)C(=O)CC(CSc1ccccc1)Nc1c(C(=O)N/N=C/c2ccccc2F)cnc2cc(F)ccc12,-,-,resazurin,-,H37Rv,-,MIC,1.25 µg/mL
O=C1c2cccnc2-c2nccc3c2c1nc1ccccc13,-,-,resazurin,-,H37Rv,-,MIC,0.05 µg/mL
CCC1CN(c2c(F)cc3c(=O)c(C(=O)O)cn(C4CC4)c3c2OC)CCN1,-,-,-,-,Isolate TN5704,-,MIC,0.2 µg/mL
COc1cc(-c2nn(CN3CCN(Cn4nc(-c5cc(OC)c(OC)c(OC)c5)oc4=S)CC3)c(=S)o2)cc(OC)c1OC,6.25 µg/mL,-,resazurin,-,H37Rv,-,inhibition,-67%
Nc1cccc2cccnc12,-,-,-,-,H37Rv,-,MIC,>6.25 µg/mL
Cc1c(C(=O)C/C(=N/NC(=O)C[N+](C)(C)C)C(=O)Nc2ccc(Cl)cc2)[n+](=O)c2ccccc2n1[O-],-,-,resazurin,-,H37Rv,-,MIC bound,>6.25 µg/mL
CN=C(Cc1cc(Br)c(OCCCN)c(Br)c1)C(=O)NCCCCC(=N)N,-,-,-,-,-,-,MIC,3 µg/mL
COc1ccc(/C=N/NC(=O)c2ccncc2)cc1OC,-,-,-,-,-,-,MIC,1 µg/mL
Cc1ccc(C(=S)CCC(=O)NC[C@H]2CN(c3ccc(N4CCOCC4)c(F)c3)C(=O)O2)cc1,-,-,-,-,10 clinical isolates resistant,-,MIC,>16 µg/mL
Cc1ccc(-c2cc(CN3CCOCC3)c(C)n2-c2ccc(F)cc2)cc1,-,-,-,-,H37Rv,-,MIC90,55.56 µM
COC(=O)COc1ccc(-c2cccc(Cl)c2)c(CN2CCN(c3ccccn3)CC2)c1,-,-,broth dilution,-,H37Rv (ATCC 27294),-,MIC,8 µg/mL
C/C=C1\C(=O)O[C@]23C=C[C@@H]4C(C(=O)OC)=CO[C@H](O[C@@H]12)[C@@H]43,-,-,MTT,-,MDR2 clinical isolate,-,MIC,2.5 µg/mL
CCOC(=O)c1nc2nc(Cl)c(Cl)nc2[nH]1,-,-,BACTEC,-,H37Rv,-,MIC bound,≤12.5 µg/mL
CC(NC(=O)c1c(F)cccc1Cl)c1nnc(SCc2ccc(F)cc2)n1Cc1cccnc1,-,-,broth dilution,7 d,H37Rv (ATCC 27294),-,MIC,>64 µg/mL
COc1c(-c2ccc3c(c2)OCO3)oc2cc(O)cc(O)c2c1=O,-,-,BACTEC,-,H37Rv,-,MIC bound,>12.5 µg/mL
Cc1[nH]n(-c2ccccc2)c(=O)c1N=Nc1ccc(-c2n[nH]c(=O)n2-c2ccccc2)cc1,-,-,-,-,H37Rv,-,EC50,>12.5 µg/mL
CCCCCCCC/C=N/NC(=O)c1cnc2cc(F)ccc2c1NC(CSc1ccccc1)CC(=O)N(C)C,-,-,resazurin,-,H37Rv,-,MIC,1.25 µg/mL
CC(=O)c1cc([N+](=O)[O-])c2nc(C3CCCC3)ccc2c1C1CCCC1,6.25 µg/mL,-,-,-,H37Rv,-,inhibition,0%
Brc1cncnc1-c1ccco1,-,-,broth dilution,-,H37Rv,-,MIC,1.5 µg/mL
CCCCCC(O)c1c(-c2ccccc2)c(-c2ccccc2)n2ccc(C#N)cc12,-,-,-,-,H37Rv,-,MIC,6.25 µg/mL
COc1cccc2c1C(=O)c1c(O)c3c(c(O)c1C2=O)C[C@@](O)(c1csc(N)n1)C[C@@H]3OC1CC(N)C(O)C(C)O1.Cl.Cl,12.5 µg/mL,-,BACTEC,-,H37Rv,-,inhibition,48%
CN(C)C(=O)CC(CSc1ccccc1)Nc1c(C(=O)N/N=C/c2ccc(Br)s2)cnc2cccc(C(F)(F)F)c12,-,-,resazurin,-,H37Rv,-,MIC,10 µg/mL
Cc1[nH][nH]c(=O)c1N=Nc1ccc(C(=O)N/N=C/c2ccc(F)cc2)cc1,12.5 µg/mL,-,-,-,H37Rv,-,inhibition,5%
CC[C@@H](/C=C/[C@@H](C)[C@H]1CCC2C34C=CC5(C[C@@H](O)CC[C@]5(C)C3CC[C@@]21C)OO4)C(C)C,-,-,-,-,-,-,MIC,2.5 µg/mL
CN(C)C(=O)CC(CSc1ccccc1)Nc1c(C(=O)N/N=C/c2ccc(F)cc2)cnc2cccc(C(F)(F)F)c12,-,-,resazurin,-,H37Rv,-,MIC,5 µg/mL
CC(C)(C)C(=O)N/N=C/c1ccc([N+](=O)[O-])s1,-,VERO,BACTEC,-,H37Rv,-,MIC,12.5 µg/mL
COc1ccc(/C=N/NC(=O)c2cnc3cccc(C(F)(F)F)c3c2NC(CSc2ccccc2)CC(=O)N(C)C)cc1O,-,-,resazurin,-,H37Rv,-,MIC,5 µg/mL
NC1=C(Cl)C(=O)c2ccccc2C1=O,-,-,BACTEC,-,H37Rv,-,MIC bound,≤12.5 µg/mL
Brc1cncnc1-c1cccs1,-,-,broth dilution,-,MDR,Rifampicin- and isoniazid-resistant,MIC,0.7 µg/mL
NNC(=O)c1ccncc1,-,-,-,-,Isolate TN6515,-,MIC,0.06 µg/mL
N#Cc1ccn2c(-c3ccc(Cl)cc3)c(-c3ccc(Cl)cc3)c(Br)c2c1,6.25 µg/mL,VERO,-,-,H37Rv,-,inhibition,100%
Cc1coc(NS(=O)(=O)c2ccc(N=Nc3c(N)[nH]c(=O)[nH]c3=O)cc2)c1C,-,-,BACTEC,-,H37Rv,-,MIC bound,>12.5 µg/mL
COc1ccc(/C=N/NC(=O)c2cnc3cc(F)ccc3c2NC(CSc2ccccc2)CC(=O)N(C)C)c(F)c1,-,-,resazurin,-,H37Rv,-,MIC,5 µg/mL
CCC(O)c1c(-c2ccccc2)c(-c2ccccc2)n2ccc(C#N)cc12,-,-,-,-,H37Rv,-,MIC,>6.25 µg/mL
CC(C)Cc1ccc(C(=O)CCC(=O)NC[C@H]2CN(c3ccc(N4CCCCC4)c(F)c3)C(=O)O2)cc1,-,-,-,-,10 clinical isolates resistant,-,MIC,>16 µg/mL
CC(=O)Nc1ccc(/C=N/NC(=O)c2ccncc2)cc1,-,-,-,-,-,-,MIC,0.1–1 µg/mL
O=S(=O)(O)c1cc(O)c2c(N=Nc3ccc(N=Nc4c(S(=O)(=O)O)cc5cc(Nc6ccccc6)ccc5c4O)c4ccccc34)cc(S(=O)(=O)O)cc2c1,-,-,BACTEC,-,H37Rv,-,MIC bound,>128 µg/mL
CO[C@H]1/C=C/O[C@@]2(C)Oc3c(C)c(O)c4c(O)c(cc(OCC(=O)NNC(N)=S)c4c3C2=O)NC(=O)/C(C)=C\C=C\[C@H](C)[C@H](O)[C@@H](C)[C@@H](O)[C@@H](C)[C@H](OC(C)=O)[C@@H]1C,-,-,-,-,-,-,EC50,0.18 µg/mL
N#Cc1ccc(-c2ccc(OCC(=O)O)cc2CN2CCN(c3ccccc3C#N)CC2)cn1,-,-,broth dilution,-,H37Rv (ATCC 27294),-,MIC,32 µg/mL
CCN(CC)c1ccc(/C=N/NC(=O)c2ccncc2)cc1,-,-,-,-,-,-,MIC,1 µg/mL
O=C1c2ccccc2C(=O)N1CC/C=C/c1ccc([N+](=O)[O-])cc1Cl,12.5 µg/mL,-,BACTEC,-,H37Rv,-,inhibition,0%
CSCCC/C=N/NC(=O)c1cnc2cc(F)ccc2c1NC(CSc1ccccc1)CC(=O)N(C)C,-,-,resazurin,-,H37Rv,-,MIC,>100 µg/mL
COc1ccc(/C=N/Nc2ccnc3ccccc23)c2ccccc12,-,VERO,-,-,H37Rv,-,MIC,3.13 µg/mL
CCCCCCCCCC(O)c1c(-c2ccccc2)c(-c2ccccc2)n2ccc(C#N)cc12,6.25 µg/mL,-,-,-,H37Rv,-,inhibition,0%
O=[N+]([O-])c1ccc(/C=C(\c2ccc([N+](=O)[O-])o2)S(=O)(=O)c2ccccc2)o1,-,-,BACTEC,-,H37Rv,-,MIC,≥12.5 µg/mL
CC[C@H](/C=C/C(C)[C@H]1CC[C@@]2(C)C3CCC4=CC(=O)CC[C@]4(C)C3CC[C@]12C)C(C)C,-,-,-,-,-,-,MIC,<2 µg/mL
CCCOc1ccc(/C=N/NC(=O)c2ccncc2)cc1,-,-,-,-,-,-,MIC,1 µg/mL
CC(=O)O/N=C1\C(C)=[N+]([O-])[N+]([O-])=C1c1ccccc1,-,-,resazurin,-,H37Rv,-,MIC bound,>6.25 µg/mL
C=CCn1c(-c2ccc(N=Nc3c(C)[nH][nH]c3=O)cc2)n[nH]c1=S,12.5 µg/mL,-,-,-,H37Rv,-,inhibition,0%
CCCCCCCOc1c(C(C)=O)cc([N+](=O)[O-])c2nccc(CC)c12,-,-,-,-,Ethambutol-resistant,-,MIC,6.25 µg/mL
N=C1CSC2=NC3=C(CCC/C3=C\c3ccccc3)C(c3ccccc3)N12,6.25 µg/mL,-,resazurin,-,H37Rv,-,inhibition,-31%
C=CC(C)(C)c1c2c(c(O)c3ccc(=O)oc13)C(=O)CC(C)(C)O2,-,-,-,-,-,-,MIC,100 µg/mL
CCCCN(C(=O)COc1cc2c(O)c3c(O)c(C)c4c(c13)C(=O)[C@@](C)(O/C=C/[C@H](OC)[C@@H](C)[C@@H](OC(C)=O)[C@H](C)[C@H](O)[C@H](C)[C@@H](O)[C@@H](C)/C=C/C=C(/C)C(=O)N2)O4)N(C)C,-,-,-,-,-,-,EC50,0.15 µg/mL
CCN(CC)c1ccc(/C=N/Nc2cc(C)nc3cc(OC)ccc23)cc1,12.5 µg/mL,VERO,-,-,H37Rv,-,inhibition,100%
Cc1[nH]n(CCO)c(=O)c1N=Nc1ccc(-c2n[nH]c(=S)o2)cc1,12.5 µg/mL,-,-,-,H37Rv,-,inhibition,0%
Cc1ccc(-c2c(C(O)c3ccccc3)c3cc(C#N)ccn3c2-c2ccc(C)cc2)cc1,6.25 µg/mL,VERO,-,-,H37Rv,-,inhibition,100%
Cc1ccnc2c1ccc1c(C)ccnc12,-,-,BACTEC,-,H37Rv,-,MIC bound,≤12.5 µg/mL
CCOC(=O)/C(N=Nc1ccc(C(=O)N/N=C\c2ccc(F)cc2)cc1)=C(\C)O,12.5 µg/mL,-,-,-,H37Rv,-,inhibition,62%
O=C(CCC(=O)c1ccc2ccccc2c1)NC[C@H]1CN(c2ccc(-n3cncn3)c(F)c2)C(=O)O1,-,-,-,-,ATCC 27294,-,MIC,2 µg/mL
COc1ccc2c(c1)[n+]([O-])c(/C(C)=N/NC(=O)c1ccccc1O)c(C)[n+]2[O-],-,-,-,-,ETA-R,-,MIC,12.5 µg/mL
CCn1cc(C(=O)O)c(=O)c2cc(F)c(N3CCN(/C=N/NC(=O)c4cccc(F)c4)CC3)cc21,-,-,-,-,A8 241,-,MIC,31.67 µg/mL
O=[N+]([O-])c1cccc2ccc(C3CCCCC3)nc12,-,-,-,-,Rifampicin-resistant,-,MIC,25 µg/mL
CCCCCCCC(O)c1c(-c2ccccc2)c(-c2ccccc2)n2ccc(C#N)cc12,6.25 µg/mL,-,-,-,H37Rv,-,inhibition,57%
Cc1ccc(-n2c(-c3ccc(Cl)cc3)cc(CN3CCOCC3)c2C)cc1,-,-,-,-,H37Rv,-,MIC90,30.76 µM
COc1ccc2cc(CN(C(=O)Nc3ccc(F)cc3)C3CC3)c(=O)[nH]c2c1,-,-,broth dilution,-,H37Rv (ATCC 27294),-,MIC,>64 µg/mL
O=C(NN=Cc1ccc([N+](=O)[O-])cc1)c1ccncc1,-,-,-,-,-,-,MIC,0.1 µg/mL
O=C(CCC(=O)c1ccccc1)NC[C@H]1CN(c2ccc(-n3cncn3)c(F)c2)C(=O)O1,-,-,-,-,10 clinical isolates sensitive,-,MIC,1–2 µg/mL
O=C1CN(Cc2ccc(Cl)cc2)CC(=O)N2Cc3ccccc3CN12,-,-,BACTEC,-,H37Rv,-,MIC bound,>12.5 µg/mL
CCCN(C(=O)COc1cc2c(O)c3c(O)c(C)c4c(c13)C(=O)[C@@](C)(O/C=C/[C@H](OC)[C@@H](C)[C@@H](OC(C)=O)[C@H](C)[C@H](O)[C@H](C)[C@@H](O)[C@@H](C)/C=C/C=C(/C)C(=O)N2)O4)N(CC)CC,-,-,-,-,-,-,EC50,0.15 µg/mL
Clc1ccc(OCc2nnc3n2N=C(c2ccc(Br)cc2)CS3)cc1,12.5 µg/mL,-,BACTEC,-,H37Rv,-,inhibition,6%
CCOc1ccc2c(N/N=C/c3ccc(OC)c4ccccc34)cc(C)nc2c1,12.5 µg/mL,VERO,-,-,H37Rv,-,inhibition,100%
C=C[C@](C)(Cl)[C@@H](Br)/C=C/[C@](C)(Cl)CBr,-,-,-,-,ATCC 358222 (isoniazid-resistant),-,MIC,3.13 µg/mL
Cc1[nH]n(-c2ccccc2)c(=O)c1N=Nc1ccc(-c2n[nH]c(=S)n2-c2ccccc2)cc1,12.5 µg/mL,-,-,-,H37Rv,-,inhibition,17%
NNC(=O)C(Cc1cnc[nH]1)NC(=O)CNC(=O)OCc1ccccc1,-,-,BACTEC,-,H37Rv,-,MIC bound,>12.5 µg/mL
CCc1ccc(-c2cc(CN3CCOCC3)c(C)n2-c2ccc(F)cc2)cc1,-,-,-,-,H37Rv DR6,V681I M492T V564A,MIC,0.66 µM
O=C(OCc1ccccc1CN1CCCCC1)c1ccc([N+](=O)[O-])cc1Cl,-,-,BACTEC,-,H37Rv,-,MIC bound,>12.5 µg/mL
COc1ccc2c(N/N=C/c3ccc(OC)c4ccccc34)ccnc2c1,12.5 µg/mL,VERO,-,-,H37Rv,-,inhibition,100%

Inhibition is in % at the dose shown (toxicity tests: loss of growth or viability). ECn: concentration that inhibits the pathogen or its effect by n%. a–b is a range or a potency band. MIC bound comes from a single tested concentration. Rows are shuffled and stem from different studies. Blank or dashed fields: not listed here.